Inhibition data for three molecules are collected here from PubChem BioAssay AID686976 (The Scripps Research Institute Molecular Screening Center, 2013).

SMILES strings stand for the structures. This is a selection; strong and weak results do not stand in their true shares. Active and inactive are the calls of the source. No stated cut-off is given here; in the data, active means inhibition above about 30%; inactive means the rest.

The experiment concerns CCHF virus ovarian tumor domain protease (vOTU, L protein). Description: CCHFV vOTU protease inhibitors, confirmation, biochemical, Pep-AMC substrate, fluorescence (AID 686976). As to conditions: Recombinant CCHFV vOTU, at 11.5 µM, active compounds read high.
Turning to `O=[N+]([O-])c1cc([N+](=O)[O-])c(Nc2ccccn2)c([N+](=O)[O-])c1`, the inhibition is inactive: 14.5%.
Regarding `Cc1nc2ccc3ccccc3c2s1.O=[N+]([O-])c1cc([N+](=O)[O-])c(O)c([N+](=O)[O-])c1`, the inhibition is inactive: -10.7%.
Then `CC(C)(C)c1ccc(OP(C)(=O)Nc2ccc(SC(F)(F)F)cc2)cc1` (stereo not drawn), with inactive: -2.23%.
